We go through 60 molecules from PubChem BioAssay AID652162 (Broad Institute, 2013).

Only a part is listed here, and it is no random draw. The source made the active and inactive calls. No stated cut-off is given here; in the data, active means inhibition above about 10%; inactive means the rest.

For orientation: inhibition means the relative decrease from the control value, in per cent.

For this test, the target named is Toxin B (Clostridioides difficile) (UniProt P18177). Nature of the test: TcdB glycohydrolase inhibitors, primary screen, biochemical, single point, plate reader (AID 652162). The settings on record: TcdB glycohydrolase enzymatic assay, at 9.99 µM, stronger effect = higher value.
For the molecule `COc1ccc(Cl)cc1C(=O)NCC1(N2CCOCC2)CCCCC1`, the inhibition was inactive: 1.08%.

Consider `O=C(NCC1(N2CCCCC2)CCCCC1)c1ccc(Cl)s1`, for which the inhibition was inactive: -0.233%.

With `N#CC1(Nc2ccccc2)CCN(Cc2ccccc2)CC1`, the inhibition is inactive: -1.08%.

Regarding `O=c1[nH]c2ccccc2n1C1CCN(C(c2cc3ccccc3o2)c2nnnn2C2CCCCC2)CC1` (stereo not given), the inhibition was inactive: -0.144%.

Consider `O=C(OC1CN2CCC1CC2)C1c2ccccc2Oc2ccccc21` (stereo not given), for which the inhibition is inactive: -0.255%.

In the case of `CCCCn1nnnc1C(c1ccc(OC)cc1)N1CCC(n2c(=O)[nH]c3ccccc32)CC1` (stereo not given), the inhibition was inactive: 1.42%.

Regarding `CCOC(=O)N1CCC(Nc2ccc(OC)cc2)CC1`, the inhibition is inactive: 0.091%.

Consider `Cc1cc(C)cc(N(C(=O)c2ccccc2)C2CCN(C(=O)OC(C)(C)C)CC2)c1`, for which the inhibition was inactive: 0.572%.

In the case of `O=C(NCC1(N2CCCCC2)CCCCC1)c1ccc(Cl)nc1`, the inhibition was inactive: -0.501%.

For the molecule `O=c1[nH]c2ccccc2n1C1CCN(C(c2ccccc2OC(F)(F)F)c2nnnn2C2CCCCC2)CC1` (stereo not given), the inhibition was inactive: 0.15%.

Regarding `Cc1cccc(NC2(C#N)CCN(Cc3ccccc3)CC2)c1`, the inhibition is inactive: -8.85%.

As for `CSc1ccccc1C(=O)NCC1(N2CCCCC2)CCCCC1`, the inhibition is inactive: -0.584%.

As to `CC(C)(C)OC(=O)N1CCC(N(C(=O)c2ccccc2)c2ccc(F)cc2)CC1`, the inhibition was inactive: 1.42%.

Take `COc1ccc(C(=O)NCC2(N3CCCCC3)CCCCC2)c(OC)c1OC`: the inhibition was inactive: -0.085%.

`CCC(c1nnnn1C1CCCC1)N1CCC(n2c(=O)[nH]c3ccccc32)CC1` (stereo not given): the inhibition is inactive: 0.645%.

As for `COc1ccc(C(=O)NCC2(N3CCCCC3)CCCCC2)cc1`, the inhibition was inactive: 0.43%.

Turning to `O=C(NCC1(N2CCCCC2)CCCCC1)c1cccs1`, the inhibition is inactive: 1.21%.

For the molecule `CCCCn1nnnc1C(CC)N1CCC(n2c(=O)[nH]c3ccccc32)CC1` (stereo not given), the inhibition is inactive: 2.63%.

As to `CCCCn1nnnc1C(c1cccs1)N1CCC(n2c(=O)[nH]c3ccccc32)CC1` (stereo not given), the inhibition was inactive: 0.925%.

In the case of `O=C(NCC1(N2CCCCC2)CCCCC1)c1ccc(=O)[nH]c1`, the inhibition is inactive: 1.17%.

On to `CCOC(=O)N1CCC(Nc2cccc(C)c2)CC1`, for which the inhibition is inactive: 0.081%.

As for `COc1cc(C(=O)NCC2(N(C)C)CCCCC2)ccc1OC(F)F`, the inhibition is inactive: 1.41%.

Consider `O=c1[nH]c2ccccc2n1C1CCN(C(c2cccc3ccccc23)c2nnnn2C2CCCC2)CC1` (stereo not given), for which the inhibition was inactive: -0.016%.

On to `O=c1[nH]c2ccccc2n1C1CCN(C(c2ccccc2)c2nnnn2C2CCCCC2)CC1` (stereo not given), for which the inhibition was inactive: -0.101%.

As to `CCOC(=O)N1CCC(Nc2ccc(F)cc2)CC1`, the inhibition is inactive: -3.73%.

For `CCCCOc1ccc(C(=O)NCC2(N3CCOCC3)CCCCC2)cc1`, the inhibition is inactive: -0.126%.

With `CCCCn1nnnc1C(c1cc2ccccc2o1)N1CCC(n2c(=O)[nH]c3ccccc32)CC1` (stereo not given), the inhibition is inactive: -0.71%.

For the molecule `O=P1(N(CCCl)CCCl)SCCCS1`, the inhibition was inactive: 1.22%.

For the molecule `O=C(NCC1(N2CCCCC2)CCCCC1)c1ccc(F)cc1`, the inhibition was inactive: 1.36%.

For the molecule `O=C1CCN(Cc2ccccc2)CC1`, the inhibition is inactive: 1.52%.

As for `CC(C)(C)n1nnnc1C(c1ccccc1)N1CCC(n2c(=O)[nH]c3ccccc32)CC1` (stereo not given), the inhibition is inactive: -1.3%.

For the molecule `CCOc1ccc(C)cc1CN(CCCl)CCCl`, the inhibition was inactive: 0.923%.

`COc1cc(C(=O)NCC2(N3CCCCC3)CCCCC2)ccc1OC(F)F`: the inhibition was inactive: -1.24%.

Consider `CC(C)c1ccc(C(=O)NCC2(N3CCOCC3)CCCCC2)cc1`, for which the inhibition is inactive: 5.43%.

With `COc1ccc(NC2CCN(C(=O)OC(C)(C)C)CC2)cc1`, the inhibition was inactive: -21.5%.

In the case of `CN1CCN(CCOC(=O)C(O)(c2ccccc2)c2ccccc2)CC1`, the inhibition was inactive: 1.11%.

Turning to `CCCCn1nnnc1C(c1cccc2ccccc12)N1CCC(n2c(=O)[nH]c3ccccc32)CC1` (stereo not given), the inhibition was inactive: 0.297%.

As for `O=C(NCC1(N2CCCCC2)CCCCC1)c1cccc(C(F)(F)F)c1`, the inhibition was inactive: 0.333%.

Consider `O=c1[nH]c2ccccc2n1C1CCN(C(c2ccccc2OC(F)(F)F)c2nnnn2C2CCCC2)CC1` (stereo not given), for which the inhibition is inactive: 1.2%.

Consider `CCN1CCC(Nc2ccc(Cl)cc2)CC1`, for which the inhibition is inactive: 1.23%.

In the case of `O=C(NCC1(N2CCCCC2)CCCCC1)c1cccc([N+](=O)[O-])c1`, the inhibition was inactive: 1.18%.

For `CSc1ccc(C(=O)NCC2(N3CCOCC3)CCCCC2)cc1`, the inhibition was inactive: 2.21%.

As to `O=C(NCC1(N2CCCCC2)CCCCC1)c1ccc(OC(F)F)cc1`, the inhibition was inactive: 2.15%.

For `CC(C)(C)n1nnnc1C(c1ccccc1OC(F)(F)F)N1CCC(n2c(=O)[nH]c3ccccc32)CC1` (stereo not given), the inhibition was inactive: 1.64%.

Turning to `COc1ccc(C(c2nnnn2C2CCCC2)N2CCC(n3c(=O)[nH]c4ccccc43)CC2)cc1` (stereo not given), the inhibition was inactive: 1.32%.

Turning to `CCCOc1ccc(C(=O)NCC2(N(C)C)CCCCC2)cc1OC`, the inhibition is inactive: 0.283%.

For the molecule `Cc1ccc(C(=O)NCC2(N(C)C)CCCCC2)o1`, the inhibition was inactive: -2.54%.

Turning to `CN1CCC(Nc2cccc(F)c2)CC1`, the inhibition is inactive: 3.17%.

As to `O=C(NCC1(N2CCCCC2)CCCCC1)c1cncc(Br)c1`, the inhibition was inactive: 0.852%.

With `CCC(c1nnnn1C(C)(C)C)N1CCC(n2c(=O)[nH]c3ccccc32)CC1` (stereo not given), the inhibition was inactive: 0.928%.

With `O=C(NCC1(N2CCOCC2)CCCCC1)c1cc(F)c(F)cc1Cl`, the inhibition was inactive: -1.47%.

In the case of `COc1cc(OC)c(C(=O)NCC2(N(C)C)CCCCC2)cc1OC`, the inhibition is inactive: 0.705%.

Consider `CCCCn1nnnc1C(c1ccnc2ccccc12)N1CCC(n2c(=O)[nH]c3ccccc32)CC1` (stereo not given), for which the inhibition is inactive: -0.185%.

As to `CC(C)c1ccc(NC2CCN(C(=O)OC(C)(C)C)CC2)cc1`, the inhibition is inactive: 1.2%.

Turning to `CN(C)c1cccc(C(=O)NCC2(N3CCCCC3)CCCCC2)c1`, the inhibition was inactive: -0.097%.

Take `COc1ccc(CN(CCCl)CCCl)cc1Cl`: the inhibition is inactive: 1.4%.

With `O=c1[nH]c2ccccc2n1C1CCN(C(c2cccs2)c2nnnn2C2CCCC2)CC1` (stereo not given), the inhibition was inactive: 0.091%.

For the molecule `CCCCn1nnnc1C(c1cccc(OC)c1OC)N1CCC(n2c(=O)[nH]c3ccccc32)CC1` (stereo not given), the inhibition was inactive: 1.51%.

As to `CCOC(=O)N1CCC(Nc2ccc(C)cc2)CC1`, the inhibition was inactive: 0.824%.

`COc1cccc(C(c2nnnn2C(C)(C)C)N2CCC(n3c(=O)[nH]c4ccccc43)CC2)c1OC` (stereo not given): the inhibition was inactive: 1.34%.
